Where “and” joins values, the source holds several entries; their conditions need not be identical. Identical values can stand only once.

This passage reports fold loss of potency against its activity on CoV-2 PVPs results from patent US20220332769A1.

For this assay, the target named is SARS CoV-1 spike on pseudotyped lentivirus (CoV-1 PVP) (SARS CoV-1) (UniProt P59594). The assay can be described thus: cell-based or functional assay.

In the case of “Recombinant ACE2 protein (from UniProt Q9BYF1 18-740) (receptor)”, the fold loss of potency against its activity on CoV-2 PVPs is 4 fold and 5 fold.
